Measurements taken from US20240115717A1 (priority 2020, published 2024).

Protein sequences, listed by entry. Tags and fused reporters are not part of them. Lines headed by an entry give the natural chain unless they say otherwise; changes in a name come on top.
UniProt O14786: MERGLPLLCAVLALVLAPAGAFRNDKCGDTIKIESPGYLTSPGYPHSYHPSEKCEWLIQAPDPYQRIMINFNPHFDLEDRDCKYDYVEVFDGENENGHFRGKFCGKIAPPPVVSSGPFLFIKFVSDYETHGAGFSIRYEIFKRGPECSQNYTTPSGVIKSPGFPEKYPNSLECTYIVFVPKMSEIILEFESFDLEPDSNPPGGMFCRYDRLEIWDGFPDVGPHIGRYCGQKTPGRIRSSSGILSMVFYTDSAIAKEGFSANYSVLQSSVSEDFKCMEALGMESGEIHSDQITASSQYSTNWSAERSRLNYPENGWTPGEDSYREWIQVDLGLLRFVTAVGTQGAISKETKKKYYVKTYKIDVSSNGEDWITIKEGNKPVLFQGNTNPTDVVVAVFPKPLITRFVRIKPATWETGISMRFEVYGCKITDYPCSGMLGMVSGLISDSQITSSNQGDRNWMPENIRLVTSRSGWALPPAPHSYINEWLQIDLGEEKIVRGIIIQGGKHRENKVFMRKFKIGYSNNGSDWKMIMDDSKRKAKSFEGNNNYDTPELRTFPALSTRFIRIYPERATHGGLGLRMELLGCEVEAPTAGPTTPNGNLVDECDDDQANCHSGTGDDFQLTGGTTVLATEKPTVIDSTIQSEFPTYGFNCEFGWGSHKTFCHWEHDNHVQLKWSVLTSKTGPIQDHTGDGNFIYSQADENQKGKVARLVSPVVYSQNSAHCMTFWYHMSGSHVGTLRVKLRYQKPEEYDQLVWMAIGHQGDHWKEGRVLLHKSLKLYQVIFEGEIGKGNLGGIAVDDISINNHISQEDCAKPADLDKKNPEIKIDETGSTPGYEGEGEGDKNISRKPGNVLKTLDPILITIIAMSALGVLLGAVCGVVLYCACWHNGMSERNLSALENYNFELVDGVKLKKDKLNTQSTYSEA

Target: NRP1 (Homo sapiens, UniProt O14786)
Assay type: binding
Conditions: phage-displayed; 2.6×10^14 phage particles/mL; FIG. 3; in words

Chlorotoxin [SEQ ID NO: 1]
NRP1 binding: approximately equivalent binding to both MMP-2 and NRP1
